# Assay results as given in publication PMC9088311, “Cyclic Thiosulfonates for Thiol-Mediated Uptake: Cascade Exchangers, Transporters, Inhibitors” (JACS Au, 2022).
# Test: Dynamic covalent ring opening with thiol 10, 1H NMR kinetics
# Format: physicochemical
# Conditions: for K, equilibrium of ring opening: phosphate buffer/DMSO-d6 9:1, equimolar 10
# Protocol: The dynamic covalent opening of CTO 3 with thiols yields product 9 with a disulfide and a sulfinate (Figure 3B). Consistent with short chalcogen bonds found in silico, the opening of CTO 3 was instantaneous on an NMR timescale with most thiols. To decelerate ring opening, bulky thiols were considered in combination with lowered pH to deactivate the nucleophile. With N-Ac-D-penicillamine 10, the opening of 5 mM CTO 3 in phosphate buffer/DMSO-d6 9:1 was still immediate at pD 6.7 but became detectable in ^1H NMR spectroscopy kinetics under more acidic conditions. The ring-opening rate constants k^O were estimated by fitting the initial velocities to second-order kinetics. Only lower bound rates were approximated from the earliest determined substrate conversions when reactions were still too fast despite the unfavorable conditions. At pD 5.4, dynamic covalent ring opening of CTO 3 with equimolar tertiary thiol 10 occurred with k^O > 0.49 M^–1 s^–1 and equilibrated at K = 6.0 × 10^3 M^–1 (Table 1, entry 1, Figures S4 and S5). At pD 2.7, further deceleration to k^O = 0.10 M^–1 s^–1 shifted the equilibrium to K = 500 M^–1 (Table 1, entry 2, Figures S6 and S7). […] At equilibrium, the concentration of thiol 10 further decreased slowly due to oxidation into the homodimer (Figure 3C, diamonds).
# Equilibrium constants for reactions with two reactants A and B and a product C are […]
# 3.1.1. Dynamic Covalent Ring Opening with Thiols
# General procedure A (at 5 mM): To a solution of deuterated sodium phosphate (200 mM in D 2O, pD 2.7 or 5.4, 180 mM final concentration), a stock solution of substrate (0.10 M in DMSO-d6, 5.0 mM final concentration) was added and stirred. Then a stock solution of 10 (0.10 M in DMSO- d6, 5.0 mM final concentration) was added and vigorously stirred at room temperature. The solution was transferred immediately to an NMR tube and NMR data were recorded repeatedly. The concentration of the substrate or thiol at each time plot was calculated by comparing the integrals of the peaks indicated with arrows in the figures, and plotted. The data points were fitted to obtain k1 with the Equation (S6) or (S7) using Graphpad Prism.
# General procedure B (at 2 mM): To a solution of deuterated sodium phosphate (200 mM in D 2O, pD 2.7 or 5.4, 180 mM final concentration), DMSO- d6 (10% DMSO- d6 in the reaction mixture) and a stock solution of substrate (0.10 M in DMSO- d6, 2.0 mM final concentration) were added and stirred. Then a stock solution of 10 (0.10 M in DMSO- d6, 2.0 mM final concentration) was added and vigorously stirred at room temperature. The solution was transferred immediately to an NMR tube and NMR data were recorded repeatedly. The concentration of the substrate or thiol at each time plot was calculated by comparing the integrals of the peaks indicated with arrows in the figures, and plotted. The data points were fitted to obtain k1 with the Equation (S6) or (S7) using Graphpad Prism.
# General procedure C (for thiosulfinates): To a solution of deuterated sodium phosphate (200 mM in D 2O, pD 5.4, 170 mM final concentration), a stock solution of substrate (0.10 M in DMSO- d6, 5.0 mM final concentration) was added and stirred. Then a stock solution of 10 (0.10 M in DMSO- d6, 10 mM final concentration) was added and vigorously stirred at room […]
# data points were fitted to obtain k1 with the Equation (S14) or (S16) using Graphpad Prism. […]
# 3.1.2. Dependence of Ring Opening on Proticity
# A mixture of deuterated phosphoric acid and NaOD (30% in D 2O), which gave pD 2.7 in D2O, was used as buffer in all solvent mixtures. To a solution of deuterated sodium phosphate (20 mM final concentration) in a mixture of D 2O and DMSO- d6 (540 μL, final D 2O content: […]
# concentration) was added and stirred. Then a stock solution of 10 (0.10 M in DMSO- d6, 5.0 mM final concentration) was added and vigorously stirred at room temperature. The solution was transferred immediately to an NMR tube and 1H NMR data were recorded repeatedly. […]
structure (smiles),measurement,setting,value
"O=S1(=O)C[C@H](O)[C@H](O)CS1 (stereo in doubt) [Compound 3, (4S,5R)-4,5-dihydroxy-1,2-dithiane-1,1-dioxide]","K, equilibrium constant for ring opening and closing","estimated pD 2.7, Na+ phosphate 20 mM, 2% D2O, 5 mM",0.73 10^3 M^–1
same,"K, equilibrium constant for ring opening and closing","estimated pD 2.7, Na+ phosphate 20 mM, 5% D2O, 5 mM",0.94 10^3 M^–1
same,"K, equilibrium constant for ring opening and closing","estimated pD 2.7, Na+ phosphate 20 mM, 8% D2O, 5 mM",1.3 10^3 M^–1
same,"K, equilibrium constant for ring opening and closing","estimated pD 2.7, Na+ phosphate 20 mM, 10% D2O, 5 mM",2.1 10^3 M^–1
same,"K, equilibrium constant for ring opening and closing","estimated pD 2.7, Na+ phosphate 20 mM, 30% D2O, 5 mM",2.3 10^3 M^–1
same,"K, equilibrium constant for ring opening and closing","estimated pD 2.7, Na+ phosphate 20 mM, 50% D2O, 5 mM",1.8 10^3 M^–1
same,"K, equilibrium constant for ring opening and closing","estimated pD 2.7, Na+ phosphate 20 mM, 70% D2O, 5 mM",1.0 10^3 M^–1
same,"K, equilibrium constant for ring opening and closing","estimated pD 2.7, Na+ phosphate 20 mM, 90% D2O, 5 mM",0.71 10^3 M^–1
same,"K, equilibrium constant for ring opening and closing","pD 2.7, 90% D2O, 5 mM",0.50 ^j 10^3 M^–1
same,"K, equilibrium of ring opening","pD 2.7, 5 mM",500 M^–1
same,"K, equilibrium constant for ring opening and closing","pD 5.4, 90% D2O, 5 mM",6.0 10^3 M^–1
same,"K, equilibrium of ring opening","pD 5.4, 5 mM",6.0 × 10^3 M^–1
O=C1O[C@H]2CSS(=O)(=O)C[C@H]2O1 [Compound 11],"K, equilibrium constant for ring opening and closing","pD 2.7, 90% D2O, 2 mM",>170 10^3 M^–1
O=S1(=O)C=C[C@@H](O)CS1 [Compound 12],"K, equilibrium constant for ring opening and closing","pD 2.7, 90% D2O, 2 mM",21 10^3 M^–1
CC1(C)O[C@H]2CSS(=O)(=O)C[C@H]2O1 [Compound 13],"K, equilibrium constant for ring opening and closing","pD 2.7, 90% D2O, 2 mM",17 10^3 M^–1
O=S1(=O)C[C@H](O)[C@@H](O)CS1 [Compound 15],"K, equilibrium constant for ring opening and closing","pD 2.7, 90% D2O, 5 mM",2.0 10^3 M^–1
